Compound potency records, mixed from different reports. Data source: NIAID ChemDB in PubChem.

All rows: enzyme or target tests

ICn is the concentration giving n% inhibition.

| compound | strain or isolate | read by | read-out | protein | organism | tested at | value |
|---|---|---|---|---|---|---|---|
| O=C(NCc1ccccc1Cl)Nc1cccc(-c2nc(C(=O)O)c(O)c(=O)[nH]2)c1 | - | - | IC50 | HCV polymerase | Hepatitis C virus | - | <100 µM |
| CC1S/C(=C\c2ccc(Cl)c(Cl)c2)C(=O)N1S(=O)(=O)c1ccc(F)cc1 | - | - | IC50 | NS5B polymerase | Hepatitis C virus | - | ≤30 µM |
| CC(=O)N[C@@H](CC(=O)O)C(=O)N[C@H](CC(C(=O)O)C(=O)O)C(=O)N[C@H](C(=O)N[C@@H](CCC(=O)O)C(=O)N[C@@H](Cc1ccc(O)cc1)C(=O)N[C@@H](CS)C(=O)C(=O)O)C(c1ccccc1)c1ccccc1 | - | - | Ki | NS3/NS4A serine protease | Hepatitis C virus | - | 0.00003 µM |
| CC(=O)N[C@H](C(=O)N1C[C@H](Oc2cc(-c3ccccc3)nc3ccc([N+](=O)[O-])cc23)C[C@H]1C(=O)NC1(C(=O)O)CC1)C1CCCCC1 | - | - | IC50 | HCV NS3/NS4A protease | Hepatitis C virus | - | 6.3 µM |
| COc1cc(C)c(S(=O)(=O)N(Cc2ccc(-c3cc4ccccc4o3)cc2)[C@H](Cc2ccccc2)C(=O)O)c(C)c1C | - | - | IC50 | RNA-dependent RNA polymerase | Hepatitis C virus | - | <5 µM |
| O=C(Nc1ccsc1-c1nc(C(=O)O)c(O)c(=O)[nH]1)OCc1ccc2ccccc2c1 | - | - | IC50 | HCV polymerase | Hepatitis C virus | - | <25 µM |
| Cc1ccc(S(=O)(=O)Nc2cc(-c3ccccc3)sc2C(=O)O)cc1 | - | - | IC50 | NS3 ATPase | Hepatitis C virus | - | <5 µM |
| COc1cc(/C=C2/SC(=S)N(NS(=O)(=O)c3ccccc3)C2=O)cc(Br)c1OC | - | - | IC50 | NS5B polymerase | Hepatitis C virus | - | ≤30 µM |
| O=C(O)[C@H](Cc1ccccc1)N(Cc1cccc(-c2cc3ccccc3o2)c1)c1ccc(Cl)cc1Cl | - | - | IC50 | RNA-dependent RNA polymerase | Hepatitis C virus | - | <5 µM |
| O=C1/C(=C\c2cccc(Cl)c2)SC(=S)N1NS(=O)(=O)c1ccccc1 | - | - | IC50 | NS5B polymerase | Hepatitis C virus | - | ≤30 µM |
| CC(C)(OC(=O)N[C@H](C(=O)N1C[C@H](OCc2cccc3ccccc23)C[C@H]1C(=O)NC1(C(=O)O)CC1)C1CCCCC1)C(Cl)(Cl)Cl | - | - | IC50 | HCV NS3/NS4A protease | Hepatitis C virus | - | 34 µM |
| Cc1ccccc1S(=O)(=O)Nc1cc(-c2ccncc2)sc1C(=O)O | - | - | IC50 | NS3 ATPase | Hepatitis C virus | - | <5 µM |
| CC(=O)N[C@@H](CC(=O)O)C(=O)N[C@H](CC(C(=O)O)C(=O)O)C(=O)N[C@@H](Cc1c[nH]c2ccccc12)C(=O)N[C@@H](CCC(=O)O)C(=O)N[C@@H](CC1CCCCC1)C(=O)N[C@@H](CS)C(=O)C(=O)O | - | - | Ki | NS3/NS4A serine protease | Hepatitis C virus | - | 0.00002 µM |
| O=C1NC(=S)S/C1=C\c1ccco1 | - | - | IC50 | NS5B polymerase | Hepatitis C virus | - | ≤30 µM |
| CC1CCC(C(=O)N(c2cc(-c3ccccc3)sc2C(=O)O)C(C)C)C1 | - | - | IC50 | NS3 ATPase | Hepatitis C virus | - | 5–20 µM |
| O=C(Nc1ccc2[nH]ncc2c1)c1cc(N2CCN(CCO)CC2)c(F)cc1F | - | - | IC50 | Reverse transcriptase | Hepatitis B virus | - | 0.1–1 µg/mL |
| C=C[C@H]1CC1(NC(=O)[C@@H]1C[C@@H](Oc2cccc3cnccc23)CN1C(=O)[C@@H](NC(=O)OC(C)(C)C)C1CCCCC1)C(=O)O | - | - | IC50 | HCV NS3/NS4A protease | Hepatitis C virus | - | 2.5 µM |
| O=C(Nc1ccc2cn[nH]c2c1)c1cc(N2CCC(O)CC2)c(F)cc1F | - | - | inhibition | Reverse transcriptase | Hepatitis B virus | 1 µg/mL | 42% |
| C=CC(=O)NCC(=O)N1C[C@H](Oc2nccc3ccc(Br)cc23)C[C@H]1C(=O)N[C@]1(C(=O)NS(=O)(=O)C2CC2)C[C@H]1C=C | 1b A156S | FRET | IC50 | Nonstructural protein 3/4A | Hepatitis C virus | - | 0.0096 µM |
| O=C(NCc1ccccc1COCc1ccccc1)Nc1ccsc1-c1nc(C(=O)O)c(O)c(=O)[nH]1 | - | - | IC50 | HCV polymerase | Hepatitis C virus | - | <25 µM |
| C=C[C@H]1CC1(NC(=O)[C@@H]1C[C@@H](Oc2cc(-c3csc(NC(C)=O)n3)nc3cc(OC)ccc23)CN1C(=O)[C@@H](Nc1ccc(C(=O)N[C@H](C)C(C)(C)C)cc1)C(C)(C)C)C(=O)O | - | - | IC50 | HCV NS3/NS4A protease | Hepatitis C virus | - | 0.003 µM |
| NN1C(=O)/C(=C\c2ccccc2)SC1=S | - | - | IC50 | NS5B polymerase | Hepatitis C virus | - | >30 µM |
| C=CCN(C(=O)Cc1ccc(OC)cc1)c1cc(-c2ccccc2)sc1C(=O)O | - | - | IC50 | NS3 ATPase | Hepatitis C virus | - | >20 µM |
| Cc1cccc(COC(=O)Nc2ccsc2-c2nc(C(=O)O)c(O)c(=O)[nH]2)c1 | - | - | IC50 | HCV polymerase | Hepatitis C virus | - | <25 µM |
| O=C(Nc1ccc2cn[nH]c2c1)c1cc(C2CCNCCN2)c(F)cc1F | - | - | inhibition | Nonstructural protein 5B | Hepatitis C virus | 0.1 µg/mL | 5% |
| O=C(NC1CCCCC1)N[C@H](C(=O)N1C[C@H](OCc2cccc3ccccc23)C[C@H]1C(=O)NC1(C(=O)O)CC1)C1CCCCC1 | - | - | IC50 | HCV NS3/NS4A protease | Hepatitis C virus | - | 47 µM |
| O=C(c1ccc(Cl)cc1Cl)N(Cc1ccc(-c2cc3ccccc3o2)cc1)C(CC1CCCCC1)=C(O)O | - | - | IC50 | RNA-dependent RNA polymerase | Hepatitis C virus | - | <5 µM |
| C=C[C@H]1CC1(NC(=O)[C@@H]1C[C@@H](Oc2cc(-c3ccccn3)nc(-c3ccccn3)c2)CN1C(=O)[C@@H](Nc1ccc(C(=O)OC(C)(C)C)cc1)C(C)(C)C)C(=O)O | - | - | IC50 | HCV NS3/NS4A protease | Hepatitis C virus | - | 0.36 µM |
| O=C(Nc1ccc2[nH]ncc2c1)c1cc(C2CCNCCN2)c(F)cc1F | - | - | inhibition | Reverse transcriptase | Hepatitis B virus | 0.1 µg/mL | 36% |
| CS(=O)(=O)NN1C(=O)/C(=C\c2ccc(Cl)c(Cl)c2)SC1=S | - | - | IC50 | NS5B polymerase | Hepatitis C virus | - | ≤30 µM |
| Cc1cc(Cl)ccc1C(=O)N(Cc1cccc(Br)c1)[C@@H](Cc1ccccc1)C(=O)O | - | - | IC50 | RNA-dependent RNA polymerase | Hepatitis C virus | - | <5 µM |
| CC(C)N(C(=O)c1ccc(Cl)cc1Cl)c1cc(-c2cc3ccccc3o2)sc1C(=O)O | - | - | IC50 | NS3 ATPase | Hepatitis C virus | - | <5 µM |
| O=C(Nc1cccc(-c2nc(C(=O)O)c(O)c(=O)[nH]2)c1)c1cc2ccccc2s1 | - | - | IC50 | HCV polymerase | Hepatitis C virus | - | <100 µM |
| Cc1ccccc1S(=O)(=O)Nc1cc(-c2ccccc2)sc1C(=O)O | - | - | IC50 | NS3 ATPase | Hepatitis C virus | - | >20 µM |
| O=C(Nc1ccc2[nH]ncc2c1)c1cc(NCc2ccccn2)c(F)cc1F | - | - | inhibition | Nonstructural protein 5B | Hepatitis C virus | 1 µg/mL | 50% |
| CC(C)(C)OC(=O)N1CCC(N(C(=O)c2ccc(Cl)cc2Cl)c2cc(-c3ccccc3)sc2C(=O)O)CC1 | - | - | IC50 | NS3 ATPase | Hepatitis C virus | - | <5 µM |
| O=C1/C(=C\c2ccc(Cl)c(Cl)c2)SC(=S)N1NS(=O)(=O)c1ccc(Cl)cc1 | - | - | IC50 | NS5B polymerase | Hepatitis C virus | - | ≤30 µM |
| CC(=O)N[C@@H](CC(=O)O)C(=O)N[C@H](CC(C(=O)O)C(=O)O)C(=O)N[C@H](C(=O)N[C@@H](CCC(=O)O)C(=O)N[C@@H](CCC(=O)O)C(=O)N[C@@H](CS)C(=O)C(=O)O)C(c1ccccc1)c1ccccc1 | - | - | Ki | NS3/NS4A serine protease | Hepatitis C virus | - | 0.00006 µM |
| Nc1nccnc1-c1nc(C(=O)O)c(O)c(=O)[nH]1 | - | - | IC50 | HCV polymerase | Hepatitis C virus | - | <100 µM |
| C=C[C@H]1CC1(NC(=O)[C@@H]1C[C@@H](Oc2cc(Cl)c3ccccc3n2)CN1C(=O)[C@@H](Nc1ccc(C(=O)OC(C)(C)C)cc1)C(C)(C)C)C(=O)O | - | - | IC50 | HCV NS3/NS4A protease | Hepatitis C virus | - | 3.2 µM |
| CC(=O)N[C@@H](CC(=O)O)C(=O)N[C@H](CC(=O)O)C(=O)N[C@H](C(=O)N[C@@H](CCC(=O)O)C(=O)N[C@@H](CC1CCCCC1)C(=O)N[C@@H](CS)C(=O)C(=O)O)C(c1ccccc1)c1ccccc1 | - | - | Ki | NS3/NS4A serine protease | Hepatitis C virus | - | 12.7 µM |
| C=C[C@H]1CC1(NC(=O)[C@@H]1C[C@@H](Oc2cccc3ncccc23)CN1C(=O)[C@@H](NC(=O)OC(C)(C)C)C1CCCCC1)C(=O)O | - | - | IC50 | HCV NS3/NS4A protease | Hepatitis C virus | - | 8.5 µM |
| CC(C)CN(Cc1ccc(C(F)(F)F)cc1)c1cc(-c2ccccc2)sc1C(=O)O | - | - | IC50 | NS3 ATPase | Hepatitis C virus | - | 5–20 µM |
| O=C(c1ccc(CN(c2ccc(Cl)cc2Cl)[C@@H](Cc2ccccc2)C(=O)O)cc1)c1ccc(Cl)cc1Cl | - | - | IC50 | RNA-dependent RNA polymerase | Hepatitis C virus | - | <5 µM |
| COC(=O)c1nc(-c2sccc2NC(=O)OCc2cccc(C)c2)[nH]c(=O)c1O | - | - | IC50 | HCV polymerase | Hepatitis C virus | - | <50 µM |
| C=C[C@H]1CC1(NC(=O)[C@@H]1C[C@@H](Oc2cc(-c3ccccc3)nc3ccccc23)CN1C(=O)[C@@H](NC(=O)OC(C)(C)C)C1CCCCC1)C(=O)O | - | - | IC50 | HCV NS3/NS4A protease | Hepatitis C virus | - | 14 µM |
| O=C(Nc1ccc2[nH]ncc2c1)c1cc(N2CCC(O)CC2)c(F)cc1F | - | - | inhibition | Reverse transcriptase | Hepatitis B virus | 0.01 µg/mL | 22% |
| O=C(O)c1nc(-c2sccc2NC(=O)C(c2ccccc2)C2CCCC2)[nH]c(=O)c1O | - | - | IC50 | HCV polymerase | Hepatitis C virus | - | <25 µM |
| CC(=O)c1cc(-c2cc(NS(=O)(=O)c3ccc(C)cc3C)c(C(=O)O)s2)cs1 | - | - | IC50 | NS3 ATPase | Hepatitis C virus | - | <5 µM |

7 of the rows above, restated:

compound,strain or isolate,read by,read-out,protein,organism,tested at,value
O=C(O)c1nc(-c2sccc2NC(=O)C(c2ccccc2)C2CCCC2)[nH]c(=O)c1O,-,-,IC50,HCV polymerase,Hepatitis C virus,-,<25 µM
CC(=O)N[C@@H](CC(=O)O)C(=O)N[C@H](CC(C(=O)O)C(=O)O)C(=O)N[C@H](C(=O)N[C@@H](CCC(=O)O)C(=O)N[C@@H](CCC(=O)O)C(=O)N[C@@H](CS)C(=O)C(=O)O)C(c1ccccc1)c1ccccc1,-,-,Ki,NS3/NS4A serine protease,Hepatitis C virus,-,0.00006 µM
O=C(Nc1ccc2cn[nH]c2c1)c1cc(C2CCNCCN2)c(F)cc1F,-,-,inhibition,Nonstructural protein 5B,Hepatitis C virus,0.1 µg/mL,5%
O=C(Nc1ccc2[nH]ncc2c1)c1cc(N2CCN(CCO)CC2)c(F)cc1F,-,-,IC50,Reverse transcriptase,Hepatitis B virus,-,0.1–1 µg/mL
O=C(c1ccc(Cl)cc1Cl)N(Cc1ccc(-c2cc3ccccc3o2)cc1)C(CC1CCCCC1)=C(O)O,-,-,IC50,RNA-dependent RNA polymerase,Hepatitis C virus,-,<5 µM
C=C[C@H]1CC1(NC(=O)[C@@H]1C[C@@H](Oc2cc(-c3csc(NC(C)=O)n3)nc3cc(OC)ccc23)CN1C(=O)[C@@H](Nc1ccc(C(=O)N[C@H](C)C(C)(C)C)cc1)C(C)(C)C)C(=O)O,-,-,IC50,HCV NS3/NS4A protease,Hepatitis C virus,-,0.003 µM
O=C(NC1CCCCC1)N[C@H](C(=O)N1C[C@H](OCc2cccc3ccccc23)C[C@H]1C(=O)NC1(C(=O)O)CC1)C1CCCCC1,-,-,IC50,HCV NS3/NS4A protease,Hepatitis C virus,-,47 µM

Inhibition is in % at the dose shown (toxicity tests: loss of growth or viability). Blank or dashed fields: not listed here. Conditions beyond the fields shown may differ between rows. a–b is a range or a potency band.